Experiments:
[1] = biological target: T1, huPrP23-231 (human prion protein, residues 23 to 231) (human)
[2] = biological target: T1, huPrP23-231 (human prion protein, …); remark: listed apart in the source
[3] = biological target: T1, huPrP23-231 (human prion protein, …); remark: listed apart in the source

B1: ICSM-18 (antibody, V domains shown)
VH: EVQLQQSGPELVKPGSSVKISCKASRNTFTDYNLDWVKQSHGKTLEWIGNVYPNNGVTGYNQKFRGKATLTVDKSSSTAYMELHSLTSEDSAVYYCALYYYDVSYWGQGTLVTVSA
VL: QIVLTQSPAIMSASPGEKVTMTCSASSSVSYMHWYQQKSGTSPKRWIYDTSKLASGVPARFSGSGSGTSYSLTISSMEAEDAATYFCHQWRSNPYTFGGGTKLEIKR
- IC50 (read off the curve) [1]: ~20 nM
- EC50 (read off the curve) [2]: ~5 nM
- Kd [3]: ~10 nM
- Ki [3]: ~20 nM

From US10316099 (D GEN, dated 2019)
